# Assay results published in publication PMC3785227.
# Target: stripped core gp120 (HIV strain YU2), displayed on yeast (HIV-1 strain YU2)
# Experiment: flow cytometry on cells
substance,measurement,value
CD4-Fc (from UniProt P01730) (Fc fusion),Kd,5.6 nM
